Results of unrelated studies side by side (data: NIAID ChemDB).

All rows: whole-cell or culture tests; organism: Mycobacterium tuberculosis

Percent inhibition refers to the dose given; in toxicity tests it is the harm to the cells. Blank or dashed fields: not listed here. MIC bound comes from a single tested concentration. Neighbouring rows are from separate reports. ECn is the concentration giving n% inhibition of infection, replication or growth. MIC50, MIC90 and the like: level of inhibition, or share of isolates inhibited.

structure,read by,read-out,cells,strain or isolate,dose,value
CNC(=S)NNc1ncnc2c1c(-c1ccc(Cl)cc1)cn2-c1ccc(C)cc1,BACTEC,inhibition,-,H37Rv,12.5 µg/mL,84%
CC(C)(C)c1cn(CC(Oc2ccc(Cl)cc2)c2ccc(Cl)cc2Cl)nn1,GFP / reporter gene,MIC,-,H37Rv,-,>256 µg/mL
O=c1c2c(-c3cc(-c4ccccc4)nc4[nH]n(-c5ccccc5)c(=O)c34)cc(-c3ccccc3)nc2[nH]n1-c1ccccc1,BACTEC,MIC bound,-,H37Rv,-,>12.5 µg/mL
CC(=O)Nc1nnc(S(=O)(=O)N2C(C)CN(c3c(F)c(NC(C)=O)c4c(=O)c(C(=O)O)cn(C5CC5)c4c3F)CC2C)s1,-,MIC,-,H37Rv,-,10 µg/mL
C[C@H]1COc2c(N3CCN(C)CC3)c(F)cc3c(=O)c(C(=O)O)cn1c23,-,MIC99,VERO Cell line,MS-115,-,2 µg/mL
N#C/C(=C\c1ccco1)n1nnc2ccccc21,-,inhibition,-,H37Rv,12.5 µg/mL,33%
CCCCCCCCCCCCCCCCCCCCCC[C@@H](O)C(=O)N[C@@H](CO)[C@H](O)[C@H](O)CCCCCCCCCCCCCC,-,MIC,-,H37Rv,-,128.2 µg/mL
CC(C)(C)c1ccc(Nc2nc(-c3ccccn3)cs2)cc1,visual reading,MIC,-,H37Rv,-,2.4 µM
COC(=O)NC1=NC(C(=O)c2ccccc2)CS1,-,MIC,-,H37Rv,-,>200 µg/mL
CC[C@H]1OC(=O)[C@H](C)C(=O)[C@H](C)[C@@H](O[C@@H]2O[C@H](C)C[C@H](N(C)C)[C@H]2O)[C@](C)(OC)C[C@@H](C)C(=O)[C@H](C)[C@H]2N(CCCCCc3ccccc3)C(=O)O[C@]12C,-,MIC,-,-,-,3 µM
N#C/C(=C/C1CCCCC1)n1nnc2ccccc21,-,inhibition,-,H37Rv,12.5 µg/mL,0%
Cc1cccc(Nc2c[nH]c(=O)[nH]c2=O)c1,turbidity,MIC99,-,H37Rv,-,20 µg/mL
c1ccc(-c2csc(Nc3ccccn3)n2)cc1,visual reading,MIC,-,H37Rv,-,>20 µM
N#Cc1nc2ccccc2nc1N1CCN(c2ccc([N+](=O)[O-])cc2)CC1,-,inhibition,-,H37Rv,6.25 µg/mL,0%
CC[C@H](/C=C/[C@@H](C)[C@H]1CC[C@H]2[C@@H]3CC=C4C[C@@H](O)CC[C@]4(C)[C@H]3CC[C@]12C)C(C)C,-,MIC,-,H37Rv,-,64 µg/mL
COC(=O)NC1=NC(C(=O)c2ccc(Br)cc2)CS1,-,MIC,-,H37Rv,-,>50 µg/mL
COc1c(N2CCN(S(=O)(=O)c3nnc(N)s3)C(C)C2)c(F)cc2c(=O)c(C(=O)O)cn(C3CC3)c12,-,MIC,-,H37Rv,-,10 µg/mL
CCOc1c(N=Nc2ccccc2)c(C)nn1C(=S)S,BACTEC,MIC,-,H37Rv,-,≥12.5 µg/mL
CC[C@H]1OC(=O)[C@H](C)C(=O)[C@H](C)[C@@H](O[C@@H]2O[C@H](C)C[C@H](N(C)C)[C@H]2O)[C@@](C)(C/C=C/c2cnc3ccccc3c2)C[C@@H](C)C(=O)[C@H](C)[C@H]2NC(=O)O[C@@]21C,-,MIC,-,-,-,4 µM
COc1cc(O)c2c(O)c3c(=O)cc(C)oc3cc2c1,-,MIC,-,H37Rv,-,43 µM
O=C(O)/C(=C\c1ccccc1)n1nnc2ccccc21,-,EC50,-,H37Rv,-,>12.5 µg/mL
CC[C@H](/C=C/[C@@H](C)[C@H]1CC[C@H]2[C@@H]3C[C@@H](O)C4=CC(=O)CC[C@]4(C)[C@H]3CC[C@]12C)C(C)C,-,MIC,-,H37Rv,-,2.2 µg/mL
Cc1nc(N)c2ncn([C@@H]3O[C@H](CO)[C@@H](O)[C@H]3O)c2n1,-,MBC,-,H37Rv,-,>64 µg/mL
NC1CCN(c2c(F)cc3c(=O)c(C(=O)O)cn(C4CC4)c3c2Cl)C1,-,MIC,-,H37Rv,-,0.5 µg/mL
Nn1c(NNC(=O)C(=O)Nc2cc(Cl)c(Cl)cc2Cl)n[nH]c1=S,BACTEC,MIC bound,-,H37Rv,-,>12.5 µg/mL
C/C=C/C/C=C/CCC(=O)[C@H]1O[C@H]1C(N)=O,-,MIC,-,Isolate 8H31,-,3 µg/mL
CCN(CC)CCNc1ccc(CO)c2oc3ccc(OS(=O)(=O)c4ccc(C)cc4)cc3c(=O)c12,-,MIC,-,ETA-R,-,6.3 µg/mL
CCCCCCCCCCCCOCc1cn([C@H]2C[C@H](O)[C@@H](CO)O2)c(=O)[nH]c1=O,-,MIC99,VERO Cell line,MS-115,-,50 µg/mL
COc1ccccc1O,-,MIC,-,H37Rv,-,>128 µg/mL
O=C(O)/C(=C\c1ccc(Br)cc1)n1nnc2ccccc21,-,inhibition,-,H37Rv,12.5 µg/mL,0%
COC(=O)NC1=NC(C(=O)c2ccc(OC)cc2)CS1,-,MIC,-,H37Rv,-,4 µg/mL
COc1ccc(-c2noc(C3=CC4(CCN(C(=O)[C@H]5CCCN5C)CC4)c4ccccc43)n2)cc1,resazurin,MIC,-,H37Rv,-,50 µM
COc1cc(-c2nn3c(C(F)(F)F)nnc3s2)cc(OC)c1OC,resazurin,MIC,-,Clinical isolate,-,8 µg/mL
Clc1ccc(OC(Cn2nnc3ccccc32)c2ccc(Cl)cc2Cl)cc1,GFP / reporter gene,MIC,-,H37Rv,-,>256 µg/mL
COc1cc(O)cc2cc3c(c(O)c12)C(=O)CC(C)(O)O3,-,MIC,-,H37Rv,-,>180 µM
Nc1cnn2cnnc2c1,BACTEC,MIC bound,-,H37Rv,-,>12.5 µg/mL
N#Cc1c(N)[n+]([O-])c2ccc(Cl)cc2[n+]1[O-],-,EC50,-,H37Rv,-,<6.25 µg/mL
CCOC(=O)C(Cc1ccccc1)NOP(=O)(CCC(=O)N1C[C@@H](n2cnc3c(=O)[nH]c(N)nc32)[C@H](OC[C@@H](O)P(=O)(ONC(Cc2ccccc2)C(=O)OCC)ONC(Cc2ccccc2)C(=O)OCC)C1)ONC(Cc1ccccc1)C(=O)OCC,-,MIC90,-,H37Rv,-,14 µM
O=C(OC1CCN(c2nc(=O)c3cc(C(F)(F)F)cc([N+](=O)[O-])c3s2)CC1)c1ccccc1F,resazurin,MIC90,-,H37Ra,-,0.004 µM
N#C/C(=C\c1ccc2c(c1)OCO2)n1nnc2ccccc21,-,inhibition,-,H37Rv,12.5 µg/mL,41%
NNC(=O)c1ccncc1,-,MIC99,VERO Cell line,H37Rv,-,0.1 µg/mL
COc1ccccc1-c1csc(Nc2ccccc2C(F)(F)F)n1,visual reading,MIC,-,H37Rv,-,>20 µM
CC[C@H](/C=C/[C@@H](C)[C@H]1CC[C@H]2[C@@H]3CC=C4C[C@@H](O[C@@H]5O[C@H](CO)[C@@H](O)[C@H](O)[C@H]5O)CC[C@]4(C)[C@H]3CC[C@]12C)C(C)C,-,MIC,-,H37Rv,-,>128 µg/mL
CCOC(=O)NC1=NC(C(=O)c2ccc(Cl)cc2)CS1,-,MIC,-,H37Rv,-,>50 µg/mL
COC(=O)C(Cc1c[nH]c2ccccc12)N1CN(C)c2ccccc2C1=O,BACTEC,inhibition,-,H37Rv,12.5 µg/mL,11%
CCOC(=O)NC1=NC(C(=O)c2ccc(C)cc2)CS1,-,MIC,-,H37Rv,-,0.2 µg/mL
Cc1cc(C2(c3ccc(O)c(C)c3)OS(=O)(=O)c3ccccc32)ccc1O,BACTEC,inhibition,-,H37Rv,12.5 µg/mL,23%
CCOC(=O)NC1=NC(C(=O)c2ccccc2)CS1,-,MIC,-,H37Rv,-,0.4 µg/mL
CN(C)c1ccc2nc3c(cc(Nc4cccc5cccc(Nc6cc7ccccc7c7nc8ccc(N(C)C)cc8[o+]c67)c45)c4ccccc43)[o+]c2c1,BACTEC,MIC,-,H37Rv,-,0.0125 µg/mL
COc1ccc(-c2noc(C3=CC4(CCN(CC5CCCO5)CC4)c4ccccc43)n2)cc1,resazurin,EC80,-,ss18b,-,>200 µM
Cc1ccc(OS(=O)(=O)c2ccccc2[N+](=O)[O-])cc1,BACTEC,MIC bound,-,H37Rv,-,>12.5 µg/mL
COc1ccc(-c2oc3cc(OC)cc(O)c3c(=O)c2OC)cc1,BACTEC,inhibition,-,H37Rv,100 µg/mL,33%
O=C(Nn1cnc2ccccc2c1=O)c1ccc(NC(=S)Nc2ccccc2)cc1,BACTEC,MIC bound,-,H37Rv,-,>12.5 µg/mL
c1ccc(Nc2nc(-c3nccs3)cs2)nc1,visual reading,MIC,-,H37Rv,-,20 µM
COC(=O)N1CCc2c(OC)c(OC)c(O)c3c2[C@@H]1Cc1cc2c(cc1-3)OCO2,MTT,MIC,-,H37Rv,-,128 µM
Cc1ccc(Nc2cn(C3C=CC(O)C3)c(=O)n(C3C=CC(O)C3)c2=O)cc1,turbidity,MIC99,-,H37Rv,-,40 µg/mL
Nc1ccc(N=Nc2ccc(O)cc2)c(N)n1,BACTEC,MIC,-,H37Rv,-,≥12.5 µg/mL
Cc1cc2nc(Cl)c(C#N)nc2cc1C,-,EC50,-,H37Rv,-,>6.25 µg/mL
CC12CC[C@H](C(=O)OC1=O)C2(C)C,resazurin,inhibition,-,H37Rv,6.25 µg/mL,-17%
O=C(O)/C(=C\c1ccc(C(F)(F)F)cc1)n1nnc2ccccc21,-,EC50,-,H37Rv,-,>12.5 µg/mL
CN1CCC(CNC(=O)CCCCCCCCC(=O)NCC2(c3ccccc3)CCN(C)CC2)(c2ccccc2)CC1,BACTEC,MIC bound,-,H37Rv,-,>12.5 µg/mL
CC[C@H]1OC(=O)[C@H](C)C(=O)[C@H](C)[C@@H](O[C@@H]2O[C@H](C)C[C@H](N(C)C)[C@H]2O)[C@](C)(OC)C[C@@H](C)C(=O)[C@H](C)[C@H]2N(NCCCc3ccnc4ccccc34)C(=O)O[C@]12C,-,MIC,-,-,-,4 µM
N#Cc1c(N2CCN(c3ccc([N+](=O)[O-])cc3)CC2)[n+](=O)c2ccc(Cl)cc2n1[O-],-,inhibition,-,H37Rv,6.25 µg/mL,100%
CO[C@@]12[C@H](COC(=O)NCCO)C3=C(C(=O)C(C)=C(N)C3=O)N1C[C@H]1[C@@H]2N1C,-,MIC,-,RMP-R,-,6.3 µg/mL
CCCCCCCCCCc1cn(Cc2cn([C@H]3C[C@H](O)[C@@H](CO)O3)c(=O)[nH]c2=O)nn1,-,MIC99,VERO Cell line,MS-115,-,10 µg/mL
N#C/C(=C\c1ccc[nH]1)n1nnc2ccccc21,-,inhibition,-,H37Rv,12.5 µg/mL,14%
Cc1ccc2c(c1)P(=O)(c1ccccc1C(O)(C(F)(F)F)C(F)(F)F)c1cc(C)ccc1O2,BACTEC,MIC bound,-,H37Rv,-,>12.5 µg/mL
COc1c(N2CCNC(C)C2)c(F)cc2c(=O)c(C(=O)O)cn(C3CC3)c12,-,MIC,-,H37Rv,-,0.12 µg/mL
Cc1c(C(=O)CSc2nc3ccccc3c(=O)n2-c2ccccc2)c(=O)n(-c2ccccc2)n1C,BACTEC,MIC bound,-,H37Rv,-,>12.5 µg/mL
CCn1cc(C(=O)O)c(=O)c2cc(F)c(N3CCN(S(=O)(=O)c4nnc(N)s4)CC3)cc21,-,MIC,-,H37Rv,-,10 µg/mL
CC1CN(c2cc3c(cc2F)c(=O)c(C(=O)O)cn3-c2ccc(F)cc2F)CCN1,-,MIC,-,H37Rv,-,4 µg/mL
C=CC[C@@]1(C)C[C@@H](C)C(=O)[C@H](C)[C@H]2NC(=O)O[C@]2(C)[C@@H](CC)OC(=O)[C@H](C)C(=O)[C@H](C)[C@H]1O[C@@H]1O[C@H](C)C[C@H](N(C)C)[C@H]1O,-,MIC,-,-,-,>128 µM
Cc1c(F)c(N2CCNC(C)C2)cc2c1c(=O)c(C(=O)O)cn2C1CC1,-,MIC,-,H37Rv,-,1 µg/mL
Cc1cc(/C=N/NC(N)=S)c(C)c2c1oc1ccccc12,BACTEC,MIC,VERO,H37Rv,-,0.4 µg/mL
CO[C@H]1/C=C/O[C@@]2(C)Oc3c(C)c(O)c4c(O)c(c(/C=N/N5CCN(C)CC5)c(O)c4c3C2=O)NC(=O)/C(C)=C\C=C\[C@H](C)[C@H](O)[C@@H](C)[C@@H](O)[C@@H](C)[C@H](OC(C)=O)[C@@H]1C,turbidity,MIC99,-,H37Rv,-,1 µg/mL
C[C@@H]1O[C@@H](O[C@H]2C[C@@H](O)[C@]3(CO)[C@H]4[C@H](O)C[C@]5(C)[C@@H](C6=CC(=O)OC6)CC[C@]5(O)[C@@H]4CC[C@]3(O)C2)[C@H](O)[C@H](O)[C@H]1O,BACTEC,MIC,-,H37Rv,-,≥128 µg/mL
CC[C@H](CC[C@@H](C)[C@H]1CC[C@H]2[C@@H]3C(=O)C=C4C[C@@H](O)CC[C@]4(C)[C@H]3CC[C@]12C)C(C)C,-,MIC,-,H37Rv,-,1.98 µg/mL
S=C1NC2=C(CSC/C2=C/c2ccc(Cl)cc2)C(c2ccc(Cl)cc2)N1,BACTEC,MIC bound,-,H37Rv,-,>12.5 µg/mL
CC[C@H]1OC(=O)[C@H](C)C(=O)[C@H](C)[C@@H](O[C@@H]2O[C@H](C)C[C@H](N(C)C)[C@H]2O)[C@](C)(OC)C[C@@H](C)C(=O)[C@H](C)[C@H]2N(CCCCc3ccc(N)cc3)C(=O)O[C@]12C,-,MIC,-,-,-,6 µM